The record followed here is US6676950B2, “Neurokinin receptor antagonists and methods of use thereof for inhibiting HIV infection” (The Children's Hospital of Philadelphia, priority 2001, dated 2004).

Sequences of proteins named here, by UniProt entry; tags and fusion partners are left off.
UniProt P25103, whole entry: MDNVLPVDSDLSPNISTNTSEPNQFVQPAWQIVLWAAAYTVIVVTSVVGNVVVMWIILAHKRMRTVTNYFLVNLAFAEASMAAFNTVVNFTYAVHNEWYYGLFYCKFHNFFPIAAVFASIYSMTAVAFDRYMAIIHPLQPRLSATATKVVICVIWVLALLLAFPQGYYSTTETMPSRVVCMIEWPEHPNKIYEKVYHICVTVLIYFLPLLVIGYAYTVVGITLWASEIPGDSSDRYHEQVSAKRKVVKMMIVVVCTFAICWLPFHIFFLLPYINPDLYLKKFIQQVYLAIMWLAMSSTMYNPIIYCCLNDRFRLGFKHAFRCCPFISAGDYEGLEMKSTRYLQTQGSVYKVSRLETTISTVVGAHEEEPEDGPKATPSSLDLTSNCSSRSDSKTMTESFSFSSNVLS

This experiment deals with Neurokinin-1 receptor (NK-1R) (human) (UniProt P25103). Briefly: cell-based or functional assay.

“Substance P (SP) (from UniProt P20366 58-68) (peptide)” returned an HIV RT activity in HIV Bal-infected MDM, SP at 10^-6M of 58%; an HIV RT activity in HIV Bal-infected MDM, SP at 10^-8M of 40%; an HIV RT activity in HIV Bal-infected MDM, SP at 10^-10M of 14%.
